# Record: PubChem BioAssay AID624099 (ICCB-Longwood, 2012)
# Assay: 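Host factors E2 relies on to silence an HPV18 LCR reporter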 (primary screen)
# Cell system: human C33A cervical carcinoma cells (HPV-negative) stably expressing BPV1 E2 and an HPV18 LCR luciferase reporter
# Reagents: siRNA pool against human genes, 40 nM
# Duration: 72 h
# Detection: 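Per-well luciferase luminescence, z-scored on each plate against the plate mean and SD with control wells left out, then averaged across three replicate plates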
# Scale: mean z-score and z-score: higher = stronger reporter signal, weaker E2 silencing
# Rule for the call: 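Hit if mean z-score reaches 2 and two or more of three replicate z-scores also reach 2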
# Shown is an unselected part of about 21,000 reagents tested. 497 of them (2.4%) were called active. 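Higher z means weaker E2 silencing; only reporter increases were scored, and knock-downs that hurt cell survival may mask genuine repressor factors.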 Unmarked entries are inactive. The numbers tell different reagents against one gene apart.
target,reagent,mean z-score,"z-score, replicate A","z-score, replicate B","z-score, replicate C"
TMC4,1,0.75,0.24,1.22,0.8
OLIG1,1,-0.39,-0.75,-0.1,-0.33
KCNK2,1,0.9,0.89,0.62,1.19
CALM2,1,0.17,0.01,0.32,0.19
SEPHS1P4,1,-0.07,-0.21,0.02,-0.01
MIMS2,1,-1.24,-1.42,-0.91,-1.39
NOL12,1,-1.28,-1.35,-1.39,-1.11
HDHD2,1,0.18,0.29,0.11,0.14
DGKK,1,0.73,0.94,0.62,0.62
SAA2,1,-0.12,-0.41,0.07,-0.01
APOC4,1,-0.62,-0.71,-0.73,-0.43
TNFSF8,1,0.68,0.92,0.75,0.37
PLA2G2F,1,-0.76,-0.45,-0.74,-1.08
CPAMD8P1,1,-0.88,-0.93,-0.84,-0.88
CPAMD8P1,2,-0.95,-1.03,-0.85,-0.97
EOMES,1,1.34,1.48,1.42,1.12
PYCR3,1,1.2,1.32,1.19,1.1
DOCK11,1,-0.32,-0.12,-0.38,-0.45
PAGR1,1,0.97,0.7,1.55,0.66
CYP27B1,1,-0.41,-0.09,-0.61,-0.53
H4C9,1,0.14,-0.11,0.09,0.45
THEM4,1,1.12,0.92,1.03,1.41
ZNF567,1,-0.68,-0.53,-0.92,-0.59
PPM1B,1,-0.2,-0.47,0.03,-0.16
LINC02907,1,0.66,1.06,0.66,0.26
HSPA9,1,0.45,0.77,0.46,0.12
AHSP,1,-0.46,0.26,-0.82,-0.83
SIM1,1,-1.14,-1.24,-1.06,-1.12
SPACA7,1,-0.72,-0.77,-0.43,-0.96
IL1RAPL2,1,1.04,1.23,0.83,1.06
CNPY1,1,1.42,1.64,1.1,1.52
MYMK,1,0.05,-0.02,0.09,0.07
SLC29A4P1,1,1.08,0.89,1.1,1.25
UBAP2,1,0.3,0.42,0.15,0.32
HTR1E,1,-1.05,-0.84,-1.13,-1.19
SLC25A44,1,0.47,0.51,0.41,0.51
GAB4,1,0.42,0.36,0.81,0.09
SIGMAR1,1,-0.16,-0.25,0.04,-0.25
POP1,1,1.57,1.32,1.46,1.92
LOC392749 (retired record),1,0.69,1.11,0.96,0
FOXR2,1,-0.49,-0.6,-0.36,-0.51
NUP88,1,-0.28,-0.44,-0.1,-0.31
ZNF784,1,-0.3,-0.62,0.09,-0.37
LOC388923 (retired record),1,-0.79,-0.85,-0.63,-0.89
TEX14,1,-0.37,-0.26,-0.58,-0.26
MX1,1,-0.27,-0.52,-0.35,0.04
CGAS,1,-0.45,-0.09,-0.63,-0.62
LOC387764 (retired record),1,0.72,0.21,0.78,1.19

Next part (4 carried over from the part before).
target,reagent,mean z-score,"z-score, replicate A","z-score, replicate B","z-score, replicate C"
TEX14,1,-0.37,-0.26,-0.58,-0.26
MX1,1,-0.27,-0.52,-0.35,0.04
CGAS,1,-0.45,-0.09,-0.63,-0.62
LOC387764 (retired record),1,0.72,0.21,0.78,1.19
PAX6,1,-0.15,0.01,-0.32,
DDHD2,1,0.98,0.96,0.9,1.09
PLA2G5,1,-0.68,-0.67,-0.52,-0.85
CXCL12,1,-0.73,-0.7,-0.7,-0.8
NAV1,1,0.81,0.78,0.82,0.83
DIRC1,1,0.28,0.35,0.41,0.07
SH3BP4,1,-0.48,-0.44,-0.27,-0.72
SCN4A,1,0.57,0.62,0.67,0.4
MED13L,1,-1.73,-1.63,-1.73,-1.84
SEC11C,1,-0.53,-0.51,-0.47,-0.62
PCDHB10,1,-0.54,-0.56,-0.5,-0.56
TMEM11,1,-1.22,-0.92,-1.58,-1.16
TRAPPC6A,1,-0.6,-0.33,-0.81,-0.67
H4C8,1,0.47,0.25,0.51,0.64
RPL3,1,-2.19,-2.19,-2.18,-2.19
RNF183,1,1.26,1.2,1.52,1.05
MGC40069 (retired record),1,1.26,1.26,1.34,1.2
SPATA33,1,-1.23,-1.02,-1.33,-1.34
SDHD,1,-0.12,0,0.12,-0.46
PRPF3,1,-3.71,-4.17,-3.48,-3.49
KRTAP10-8,1,-1.7,-1.65,-1.51,-1.94
LINC00671,1,0.05,-0.08,0.4,-0.16
FLJ45300 (retired record),1,-0.83,-0.81,-0.74,-0.95
ENPP3,1,-0.38,-0.1,-0.5,-0.55
ALK,1,-0.14,-0.68,0.08,0.19
